Experimental data: PubChem BioAssay AID624099 (ICCB-Longwood, 2012)
Shown is an unselected part of about 21,000 reagents. 497 of all reagents (2.4%) count as active. 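Higher z means weaker E2 silencing; only reporter increases were scored, and knock-downs that hurt cell survival may mask genuine repressor factors.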 A number with no mark means an inactive call.

Aim: 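Human genes that papillomavirus E2 requires to repress the HPV18 LCR promoter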 (primary screen)
System: human C33A cervical carcinoma cells (HPV-negative) stably expressing BPV1 E2 and an HPV18 LCR luciferase reporter
Knock-down reagent: siRNA pool against human genes, 40 nM
Timing: 72 h
Read-out: 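Per-well luciferase luminescence, z-scored on each plate against the plate mean and SD with control wells left out, then averaged across three replicate plates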
Reading the numbers: mean z-score and z-score: higher = stronger reporter signal, weaker E2 silencing
Call rule: 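Hit if mean z-score reaches 2 and two or more of three replicate z-scores also reach 2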

target,mean z-score,"z-score, replicate A","z-score, replicate B","z-score, replicate C"
PAGE2B,-0.04,0.1,0.13,-0.35
TSC22D2,-0.06,-0.05,0,-0.13
EVX2,0.51,0.47,0.36,0.7
LOC400623 (retired record),-0.01,0.08,-0.01,-0.11
TMX2,0.96,0.98,1.1,0.81
HSPA8,0.51,0.75,0.13,0.64
INO80B,-0.54,-0.64,-0.4,-0.58
CSTA,2.21 (active),2.29,2.11,2.23
SLMAP,1.34,1.46,1.45,1.1
SP140,1.36,1.36,1.34,1.39
TUBG1,0.63,0.36,0.57,0.95
ATP6V1E2,-0.4,-0.26,-0.86,-0.09
NPAT,1.48,1.33,1.8,1.31
KYAT1,-0.44,-0.3,-0.76,-0.27
OSGIN2,-1.07,-1.31,-1.35,-0.54
SYT7,0.2,0.22,0.21,0.17
A3GALT2,1.47,1.84,1.24,1.34
RALGPS1,0.61,0.61,0.6,0.61
CDK5R2,-0.23,-0.36,-0.3,-0.03
POLR3D,0.35,0.23,0.3,0.51
LOC400163 (retired record),-0.82,-1.01,-0.62,-0.84
GRM1,-0.4,-0.3,-0.28,-0.62
LBX1-AS1,-0.31,-0.2,-0.67,-0.06
CFLAR,-1.45,-1.45,-1.44,-1.46
KDM1A,-0.89,-0.67,-0.78,-1.21
LOC392790 (retired record),0.32,0.1,-0.05,0.92
HDAC3,-0.58,-0.58,-0.43,-0.72
OR52I2,1.27,1.07,1.57,1.17
RBM27,0.77,0.86,0.89,0.57
LDLR,1.12,1.06,1.08,1.24
TCF4,-0.27,-0.83,-0.1,0.11
LOC389099 (retired record),-0.52,-0.31,-0.64,-0.61
AIFM2,1.87,1.76,1.92,1.93
ZNF551,0.08,0.06,0.37,-0.19
MRPS25,0.58,0.34,0.8,0.61
ZC3H11A,-1.37,-0.89,-1.49,-1.73
KIAA0319,1.21,1.53,1.21,0.89
LOC147975 (retired record),0.42,0.82,-0.07,0.52
ADAT2,0.24,0.01,0.12,0.61

3 of these entries in another layout:
{"target": "TMX2", "mean z-score": 0.96, "z-score, replicate A": 0.98, "z-score, replicate B": 1.1, "z-score, replicate C": 0.81}
{"target": "HSPA8", "mean z-score": 0.51, "z-score, replicate A": 0.75, "z-score, replicate B": 0.13, "z-score, replicate C": 0.64}
{"target": "INO80B", "mean z-score": -0.54, "z-score, replicate A": -0.64, "z-score, replicate B": -0.4, "z-score, replicate C": -0.58}
